Compound potency records, mixed from different reports. Data source: NIAID ChemDB in PubChem.

Common to all: target-level tests; target: CXCR4; read-out: IC50

Neighbouring rows are from separate reports.

{"SMILES": "CNC(C)[C@H]1O[C@H](O[C@@H]2[C@@H](O)[C@H](O[C@@H]3OC[C@@](C)(O)[C@@H](NC)[C@@H]3O)[C@@H](NC(=O)[C@@H](N)CCCN=C(N)N)C[C@H]2NC(=O)[C@@H](N)CCCN=C(N)N)[C@H](NC(=O)[C@@H](N)CCCN=C(N)N)[C@@H](O)[C@@H]1O", "result": "2 µM"}
{"SMILES": "NC(N)=NCCC[C@H](N)C(=O)NC[C@H]1O[C@H](O[C@H]2[C@H](O)[C@@H](O)[C@H](NC(=O)[C@@H](N)CCCN=C(N)N)C[C@@H]2NC(=O)[C@@H](N)CCCN=C(N)N)[C@H](NC(=O)[C@@H](N)CCCN=C(N)N)[C@@H](O)[C@@H]1O", "read by": "flow cytometry", "result": "<10 µM"}
{"SMILES": "NC(N)=NCCC[C@@H]1NC(=O)CNC(=O)[C@H](Cc2ccc3ccccc3c2)NC(=O)[C@H](CCCN=C(N)N)NC(=O)[C@@H](Cc2ccc(F)cc2)NC1=O", "read by": "radiometric", "result": "0.035 µM"}
{"SMILES": "NC[C@@H]1O[C@H](O[C@H]2[C@@H](O)[C@H](O[C@@H]3[C@@H](O)[C@H](N)C[C@H](N)[C@H]3O[C@H]3O[C@H](CN)[C@@H](O)[C@H](O)[C@H]3N)O[C@@H]2CO)[C@H](N)[C@@H](O)[C@@H]1O", "read by": "flow cytometry", "result": ">10 µM"}
{"SMILES": "NC(N)=NCCC[C@H]1/C=C/[C@@H](Cc2ccc3ccccc3c2)C(=O)NCC(=O)N[C@H](Cc2ccc(O)cc2)C(=O)N[C@@H](CCCN=C(N)N)C(=O)N1", "read by": "radiometric", "result": "31–100 µM"}
{"SMILES": "NCCCC[C@@H]1NC(=O)[C@H](CCCN=C(N)N)NC(=O)[C@@H](Cc2ccc(O)cc2)NC(=O)CNC(=O)[C@H](Cc2ccc3ccccc3c2)NC1=O", "read by": "radiometric", "result": ">1 µM"}
{"SMILES": "NC(N)=NCCC[C@H](N)C(=O)NC[C@@H]1OC(O[C@H]2[C@@H](O)[C@H](O[C@@H]3[C@@H](O)[C@H](NC(=O)[C@@H](N)CCCN=C(N)N)C[C@H](NC(=O)[C@@H](N)CCCN=C(N)N)[C@H]3O[C@H]3O[C@H](CNC(=O)[C@@H](N)CCCN=C(N)N)[C@@H](O)[C@H](O)[C@H]3NC(=O)[C@@H](N)CCCN=C(N)N)O[C@@H]2CO)[C@H](NC(=O)[C@@H](N)CCCN=C(N)N)[C@@H](O)[C@@H]1O", "result": "2.7 µM"}
{"SMILES": "NCC[C@@H]1NC(=O)[C@H](CCCN=C(N)N)NC(=O)[C@@H](Cc2ccc(O)cc2)NC(=O)CNC(=O)[C@H](Cc2ccc3ccccc3c2)NC1=O", "read by": "radiometric", "result": "0.44 µM"}
{"SMILES": "NC[C@@H]1O[C@H](O[C@H]2[C@@H](O)[C@H](O[C@@H]3[C@@H](O)[C@H](N)C[C@H](N)[C@H]3O[C@H]3O[C@H](CO)[C@@H](O)[C@H](O)[C@H]3N)O[C@@H]2CO)[C@H](N)[C@@H](O)[C@@H]1O", "read by": "flow cytometry", "result": ">10 µM"}
{"SMILES": "NC(N)=NCCC[C@@H]1NC(=O)[C@H](Cc2ccc(F)cc2)NC(=O)[C@@H](Cc2ccc(O)cc2)NC(=O)CNC(=O)[C@H](Cc2ccc3ccccc3c2)NC1=O", "read by": "radiometric", "result": "0.057 µM"}
{"SMILES": "CNC(C)[C@H]1O[C@H](O[C@@H]2[C@@H](O)[C@H](O[C@@H]3OC[C@@](C)(O)[C@@H](NC)[C@@H]3O)[C@@H](NC(=O)[C@@H](N)CCCN=C(N)N)C[C@H]2NC(=O)[C@@H](N)CCCN=C(N)N)[C@H](NC(=O)[C@@H](N)CCCN=C(N)N)[C@@H](O)[C@@H]1O", "read by": "flow cytometry", "result": "<10 µM"}
{"SMILES": "NC(N)=NCCC[C@@H]1NC(=O)[C@H](CCCN=C(N)N)NC(=O)[C@@H](Cc2ccc(F)cc2)NC(=O)CNC(=O)[C@H](Cc2ccc3ccccc3c2)NC1=O", "read by": "radiometric", "result": "0.22 µM"}
{"SMILES": "NC[C@H]1O[C@H](O[C@H]2[C@H](O)[C@@H](O)[C@H](N)C[C@@H]2N)[C@H](N)[C@@H](O)[C@@H]1O", "read by": "flow cytometry", "result": ">10 µM"}
{"SMILES": "NC(N)=NCCC[C@@H]1NC(=O)CNC(=O)[C@H](Cc2ccc3ccccc3c2)NC(=O)[C@H](CCCN=C(N)N)NC(=O)[C@@H](Cc2ccc(O)cc2)NC1=O", "read by": "radiometric", "result": "0.3 µM"}
{"SMILES": "NC(N)=NCCC[C@@H]1NC(=O)[C@H](CCCN=C(N)N)NC(=O)[C@@H](Cc2ccc(O)cc2)NC(=O)C/C=C/[C@H](Cc2ccc3ccccc3c2)NC1=O", "read by": "radiometric", "result": "0.18 µM"}

The first 2 rows once more:

| SMILES | read by | result |
|---|---|---|
| CNC(C)[C@H]1O[C@H](O[C@@H]2[C@@H](O)[C@H](O[C@@H]3OC[C@@](C)(O)[C@@H](NC)[C@@H]3O)[C@@H](NC(=O)[C@@H](N)CCCN=C(N)N)C[C@H]2NC(=O)[C@@H](N)CCCN=C(N)N)[C@H](NC(=O)[C@@H](N)CCCN=C(N)N)[C@@H](O)[C@@H]1O |  | 2 µM |
| NC(N)=NCCC[C@H](N)C(=O)NC[C@H]1O[C@H](O[C@H]2[C@H](O)[C@@H](O)[C@H](NC(=O)[C@@H](N)CCCN=C(N)N)C[C@@H]2NC(=O)[C@@H](N)CCCN=C(N)N)[C@H](NC(=O)[C@@H](N)CCCN=C(N)N)[C@@H](O)[C@@H]1O | flow cytometry | <10 µM |

An empty or dashed field is not shown. Two numbers with a dash give a range or band. ICn: concentration for n% inhibition.